Results of unrelated studies side by side (data: NIAID ChemDB).

Shared fields: whole-cell or culture tests

MIC50, MIC90 and the like: level of inhibition, or share of isolates inhibited. Zone: diameter of growth inhibition. Neighbouring rows are from separate reports. Percent inhibition refers to the dose given; in toxicity tests it is the harm to the cells. ECn: concentration that inhibits the pathogen or its effect by n%. Blank or dashed fields: not listed here.

SMILES	organism	strain or isolate	mutations	method	conditions	endpoint	tested at	value
COc1c(-c2ccccc2)oc2cc3c(c(OC)c2c1=O)OCO3	Mycobacterium phlei	-	-	-	-	MIC	-	20 µg/mL
CC[C@@H](CO)NCCN[C@@H](CC)CO	Mycobacterium bovis BCG	1173P2	-	resazurin	48 h	MIC	-	0.75 µg/mL
COc1nc2ccc(Br)cc2cc1[C@@H](c1ccccc1)[C@@](O)(CCN(C)C)c1cccc2ccccc12	Mycobacterium aurum	-	T523 insertion	resazurin	-	MIC	-	0.04 µg/mL
CCc1cc(C(N)=S)ccn1	Mycobacterium avium intracellulare	Serovar 8	-	-	-	inhibition	1.25 µg/mL	49%
CC(C)N=c1cc2n(-c3ccc(Cl)cc3)c3ccccc3nc-2cc1Nc1ccc(Cl)cc1	Mycobacterium abscessus	103	-	resazurin	-	MIC90	-	1.3 µM
Cc1c(N2CCC3CNCC32)c(F)cn2c(=O)c(C(=O)O)cc(C3CC3)c12	Mycobacterium smegmatis	ATCC114	-	-	-	MIC	-	0.78 µg/mL
C(#Cc1ccccc1)c1ccccc1	Mycobacterium bovis BCG	1173P2	-	resazurin	24 h	MIC	-	31.25 µg/mL
CN1CCN(c2c(F)cn3c(=O)c(C(=O)O)cc(-c4ccccc4)c3c2F)CC1.Cl	Mycobacterium smegmatis	ATCC114	-	-	-	MIC	-	6.2 µg/mL
O=C(Nc1ccc(C(F)(F)F)cc1)c1cc(Cl)ccc1OP(=O)(c1ccccc1)c1ccccc1	Mycobacterium kansasii	My 6509/96	-	-	7 d	MIC	-	4 µM
COc1cc2oc(-c3ccccc3)c(OC)c(=O)c2c(OC)c1OC	Mycobacterium phlei	-	-	-	-	MIC	-	20 µg/mL
Cc1c(N2C[C@@H]3C(N)[C@@H]3C2)c(F)cn2c(=O)c(C(=O)O)cc(C3CC3)c12.Cl	Mycobacterium smegmatis	ATCC114	-	-	-	MIC	-	0.1 µg/mL
NCC[C@H](O)C(=O)N[C@@H]1C[C@H](N)[C@@H](O[C@H]2O[C@H](CN)[C@@H](O)[C@H](O)[C@H]2O)[C@H](O)[C@H]1O[C@H]1O[C@H](CO)[C@@H](O)[C@H](N)[C@H]1O	Mycobacterium marinum	37 clinical isolates	-	-	-	MIC50	-	1.5 µg/mL
CO[C@H]1/C=C/O[C@@]2(C)Oc3c(C)c(O)c4c(O)c(c5c(c4c3C2=O)NC2(CCN(CC(C)C)CC2)N=5)=NC(=O)/C(C)=C\C=C\[C@H](C)[C@H](O)[C@@H](C)[C@@H](O)[C@@H](C)[C@H](OC(C)=O)[C@@H]1C	Mycobacterium avium paratuberculosis	K-10(PYUB180)	-	-	-	MIC	-	0.5 µg/mL
CCCNC(=O)Nc1ccc(S(=O)(=O)Nc2cc(C)on2)cc1	Mycobacterium kansasii	235/80	-	broth dilution / absorbance	14 d	MIC100	-	1000 µM
O=C(O)c1cc(C(F)(F)F)cc2c(=O)nc(N3CCN(CC4CCCCC4)CC3)sc12	Mycobacterium abscessus	2005-0524	-	resazurin	-	MIC99	-	>100 µg/mL
Cc1nn(-c2ccccc2)c2c1C(c1cn(-c3ccccc3)nc1-c1ccc(F)cc1)C1=C(NC(C)(c3cc(O)c(Cl)c(O)c3)NC1=O)O2	Mycobacterium phlei	NCIM 2240	-	agar diffusion / agar	-	zone	1 mg/mL	2.5 mm
CC[C@H]1OC(=O)[C@H](C)[C@@H](O[C@H]2C[C@@](C)(OC)[C@@H](O)[C@H](C)O2)[C@H](C)[C@@H](O[C@@H]2O[C@H](C)C[C@H](N(C)C)[C@H]2O)[C@](C)(OC)C[C@@H](C)C(=O)[C@H](C)[C@@H](O)[C@]1(C)O	Mycobacterium marinum	37 clinical isolates	-	-	-	MIC50	-	0.5 µg/mL
CC[C@H]1OC(=O)[C@H](C)[C@@H](O[C@H]2C[C@@](C)(OC)[C@@H](O)[C@H](C)O2)[C@H](C)[C@@H](O[C@@H]2O[C@H](C)C[C@H](N(C)C)[C@H]2O)[C@](C)(OC)C[C@@H](C)C(=O)[C@H](C)[C@@H](O)[C@]1(C)O	Mycobacterium avium paratuberculosis	K-10(PYUB180)	-	-	-	MIC	-	1.25 µg/mL
O=C(Nc1ccc(C(F)(F)F)cc1)c1cc(Br)ccc1OP(=O)(OCc1ccccc1)OCc1ccccc1	Mycobacterium kansasii	My 6509/96	-	-	7 d	MIC	-	8 µM
CCCCCCCCCCNC(=O)Nc1ccc(S(=O)(=O)Nc2cc(C)on2)cc1	Mycobacterium kansasii	6509/96 clinical isolate	-	broth dilution / absorbance	14 d	MIC100	-	125 µM
Cc1c(N2CC3CCC(C)(NC(=O)[C@H](C)N)C3C2)c(F)cn2c(=O)c(C(=O)O)cc(C3CC3)c12.Cl	Mycobacterium smegmatis	ATCC114	-	-	-	MIC	-	1.56 µg/mL
COc1ccc(-c2nn(-c3ccccc3)cc2C2C3=C(NC(C)(c4cc(O)c(I)cc4Cl)NC3=O)Oc3c2c(C)nn3-c2ccccc2)cc1	Mycobacterium phlei	NCIM 2240	-	agar diffusion / agar	-	zone	0.5 mg/mL	6.2 mm
NNC(=O)c1ccncc1	Mycobacterium avium paratuberculosis	K-10(PYUB180)	-	-	-	MIC	-	≥250 µg/mL
CO[C@@H]1C[C@@H](C[C@H]2CC[C@H](C)[C@H]([C@@H](C)C(=O)O)O2)O[C@]2(O[C@](C)([C@H]3CC[C@@](C)([C@@H]4O[C@@H]([C@H]5O[C@@](O)(CO)[C@H](C)C[C@@H]5C)C[C@@H]4C)O3)C[C@H]2C)[C@@H]1C	Mycobacterium aurum	-	T532 insertion	resazurin	-	MIC	-	0.32 µg/mL
COc1cc(Cc2cnc(N)nc2N)cc(OC)c1OC	Mycobacterium ulcerans	Isolate 94-886	-	-	-	MBC	-	>32 µg/mL
CC(C)(C)c1ccc(C=O)cc1	Mycobacterium fortuitum	-	-	-	-	inhibition	1000 µM	5.5%
C#CC(C)(O)CC	Mycobacterium bovis BCG	1173P2	-	resazurin	24 h	MIC	-	125 µg/mL
COc1cc(Cc2cnc(N)nc2N)cc(OC)c1Br	Mycobacterium ulcerans	ATCC 19423	-	-	-	MBC	-	8 µg/mL
Cc1nn(-c2ccccc2)c2c1C(c1cn(-c3ccccc3)nc1-c1ccc(F)cc1)C1=C(NC(C)(c3cc(O)cc(O)c3)NC1=O)O2	Mycobacterium phlei	NCIM 2240	-	agar diffusion / agar	-	MIC	-	50 µg/mL
O=C(Nc1ccc(Br)cc1)c1cc(Cl)ccc1OP(=O)(c1ccccc1)c1ccccc1	Mycobacterium kansasii	My 6509/96	-	-	14 d	MIC	-	8 µM
COc1c(O)cc2oc(-c3ccccc3)cc(=O)c2c1O	Mycobacterium phlei	-	-	-	-	MIC	-	15 µg/mL
C=C1C(=O)N[C@@H](CC(C)C)C(=O)N[C@H](CC(C)C)C(=O)N[C@H](C(=O)O)[C@H](C)C(=O)N[C@H](CCCN=C(N)N)C(=O)N[C@@H](/C=C/C(C)=C/[C@H](C)[C@H](Cc2ccccc2)OC)[C@@H](C)C(=O)N[C@@H](C(=O)O)CCC(=O)N1C	Mycobacterium chelonae	-	-	resazurin	-	MIC	-	0.84 µM
COc1c(O)cc2oc(-c3ccccc3)c(OC)c(=O)c2c1O	Mycobacterium phlei	-	-	-	-	MIC	-	15 µg/mL
CO[C@H]1/C=C/O[C@@]2(C)Oc3c(C)c(O)c4c(=O)c(c5oc6cc(N7CCN(CC(C)C)CC7)cc(=O)c6nc5c4c3=C2O)NC(=O)/C(C)=C\C=C\[C@H](C)[C@H](O)[C@@H](C)[C@@H](O)[C@@H](C)[C@H](OC(C)=O)[C@@H]1C	Mycobacterium avium	3354	-	-	-	MBC	-	0.25 µg/mL
C[C@H]1COc2c(N3CCN(C)CC3)c(F)cc3c(=O)c(C(=O)O)cn1c23	Mycobacterium marinum	37 clinical isolates	-	-	-	MIC90	-	4 µg/mL
NNC(=O)c1ccncc1	Mycobacterium aurum	A+	-	-	-	EC50	-	<0.03 µg/mL
C[C@H]1COC2(CCN(c3nc(=O)c4cc(C(F)(F)F)cc(C(=O)O)c4s3)CC2)O1	Mycobacterium massiliense	2005-0484	-	resazurin	-	MIC99	-	>100 µg/mL
C#Cc1ccccc1	Mycobacterium bovis BCG	1173P2	-	resazurin	24 h	MIC	-	3.87 µg/mL
N/C(=N\N=C\c1ccccn1)c1ccccn1	Mycobacterium fortuitum	-	-	-	-	inhibition	1000 µM	3.7%
CN[C@@H]1[C@H](O[C@H]2[C@H](O[C@H]3[C@H](O)[C@@H](O)[C@H](N=C(N)N)[C@@H](O)[C@@H]3N=C(N)N)O[C@@H](C)[C@]2(O)C=O)O[C@@H](CO)[C@H](O)[C@H]1O	Mycobacterium aurum	A+	-	-	-	EC90	-	0.18 µg/mL
CCCCCNC(=O)Nc1ccc(S(=O)(=O)Nc2cc(C)on2)cc1	Mycobacterium kansasii	235/80	-	broth dilution / absorbance	7 d	MIC100	-	250 µM
O=C(Nc1ccc(Cl)c(Cl)c1)c1cc(Cl)ccc1OP(=O)(OCc1ccccc1)OCc1ccccc1	Mycobacterium kansasii	My 6509/96	-	-	7 d	MIC	-	125 µM
O=c1c(O)c(-c2ccc(O)cc2O)oc2cc(O)cc(O)c12	Mycobacterium phlei	-	-	-	-	MIC	-	>100 µg/mL
C[n+]1cc2c3c(ccc2c2ccc4cc5c(cc4c21)OCO5)OCO3	Mycobacterium aurum	-	-	-	-	MIC50	-	9.61 µg/mL
Cc1cc(NS(=O)(=O)c2ccc(NC(=O)C(=O)Nc3ccc(S(=O)(=O)Nc4cc(C)on4)cc3)cc2)no1	Mycobacterium kansasii	235/80	-	broth dilution / absorbance	14 d	MIC100	-	8 µM
Cc1nn(-c2ccccc2)c2c1C(c1cn(-c3ccccc3)nc1-c1ccc(F)cc1)C1=C(NC(C)(c3cc(O)c(I)cc3Cl)NC1=O)O2	Mycobacterium phlei	NCIM 2240	-	agar diffusion / agar	-	MIC	-	60 µg/mL
N/C(=N\N=C\c1ccccc1Sc1ccc(Cl)cc1)c1ccccn1	Mycobacterium fortuitum	-	-	-	-	inhibition	100 µM	2.3%
NNC(=O)c1ccncc1	Mycobacterium kansasii	235/80	-	broth dilution / absorbance	7 d	MIC100	-	>250 µM
O=C(Nc1ccccc1)c1ccccc1OP(=O)(OCc1ccccc1)OCc1ccccc1	Mycobacterium kansasii	My 235/80	-	-	7 d	MIC	-	250 µM
N/N=C(\N)c1ccccn1	Mycobacterium fortuitum	-	-	-	-	inhibition	1000 µM	12.1%
CN(C)c1cc(NC(=O)CNC(C)(C)C)c(O)c2c1C[C@H]1C[C@H]3[C@H](N(C)C)C(=O)C(C(N)=O)=C(O)[C@@]3(O)C(=O)C1=C2O	Mycobacterium abscessus	X51	-	broth dilution	-	MIC	-	1 µg/mL
O=C1c2cc(Cl)ccc2OP(=O)(c2ccccc2)N1c1ccc(Cl)c(Cl)c1	Mycobacterium kansasii	My 6509/96	-	-	21 d	MIC	-	16 µM
COC[C@H]1OC(=O)c2coc3c2[C@@]1(C)C1=C(C3=O)C2CCC(=O)[C@@]2(C)C[C@H]1OC(C)=O	Mycobacterium bovis	BCG	-	-	-	inhibition	0.5 µM	0%
CO[C@H]1/C=C/O[C@@]2(C)Oc3c(C)c(O)c4c(O)c(c(/C=N/N5CCN(C)CC5)c(O)c4c3C2=O)NC(=O)/C(C)=C\C=C\[C@H](C)[C@H](O)[C@@H](C)[C@@H](O)[C@@H](C)[C@H](OC(C)=O)[C@@H]1C	Mycobacterium avium intracellulare	20 isolates	-	-	-	MIC90	-	2 µg/mL
O=C(Nc1ccc(C(F)(F)F)cc1)c1cc(Br)ccc1OP(=O)(c1ccccc1)c1ccccc1	Mycobacterium kansasii	My 235/80	-	-	21 d	MIC	-	8 µM
N/C(=N\N=C\c1cccc2ccccc12)c1ccccn1	Mycobacterium fortuitum	-	-	-	-	inhibition	1000 µM	10.1%
C[C@H]1COC2(CCN(c3nc(=O)c4cc(C(F)(F)F)cc([N+](=O)[O-])c4s3)CC2)O1	Mycobacterium marinum	ATCC 927	-	resazurin / fluorescence	-	MIC	-	0.037 µg/mL

Repeating the final 5 entries:

SMILES	organism	strain or isolate	mutations	method	conditions	endpoint	tested at	value
COC[C@H]1OC(=O)c2coc3c2[C@@]1(C)C1=C(C3=O)C2CCC(=O)[C@@]2(C)C[C@H]1OC(C)=O	Mycobacterium bovis	BCG	-	-	-	inhibition	0.5 µM	0%
CO[C@H]1/C=C/O[C@@]2(C)Oc3c(C)c(O)c4c(O)c(c(/C=N/N5CCN(C)CC5)c(O)c4c3C2=O)NC(=O)/C(C)=C\C=C\[C@H](C)[C@H](O)[C@@H](C)[C@@H](O)[C@@H](C)[C@H](OC(C)=O)[C@@H]1C	Mycobacterium avium intracellulare	20 isolates	-	-	-	MIC90	-	2 µg/mL
O=C(Nc1ccc(C(F)(F)F)cc1)c1cc(Br)ccc1OP(=O)(c1ccccc1)c1ccccc1	Mycobacterium kansasii	My 235/80	-	-	21 d	MIC	-	8 µM
N/C(=N\N=C\c1cccc2ccccc12)c1ccccn1	Mycobacterium fortuitum	-	-	-	-	inhibition	1000 µM	10.1%
C[C@H]1COC2(CCN(c3nc(=O)c4cc(C(F)(F)F)cc([N+](=O)[O-])c4s3)CC2)O1	Mycobacterium marinum	ATCC 927	-	resazurin / fluorescence	-	MIC	-	0.037 µg/mL